{
  "source": "paper PMC5740381",
  "about": "(Antimicrobial Agents and Chemotherapy, 2017)",
  "key": {"[1]": {"system": "HCV genotype 1a replicon", "test": "Transient replicon assay with engineered substitutions", "format": "cell-based, Hepatitis C virus"}, "[2]": {"system": "HCV genotype 1b replicon", "test": "Transient replicon assay with engineered substitutions", "format": "cell-based, Hepatitis C virus"}, "[3]": {"system": "HCV genotype 2a replicon", "test": "Transient replicon assay with engineered substitutions", "format": "cell-based, Hepatitis C virus"}, "[4]": {"system": "HCV genotype 2b replicon", "test": "Transient replicon assay with engineered substitutions", "format": "cell-based, Hepatitis C virus"}, "[5]": {"system": "HCV genotype 3a replicon", "test": "Transient replicon assay with engineered substitutions", "format": "cell-based, Hepatitis C virus"}, "[6]": {"system": "HCV genotype 4a replicon", "test": "Transient replicon assay with engineered substitutions", "format": "cell-based, Hepatitis C virus"}, "[7]": {"system": "HCV genotype 4d replicon", "test": "Transient replicon assay with engineered substitutions", "format": "cell-based, Hepatitis C virus", "conditions": "4d NS3 D168V vs wild-type replicon"}, "[8]": {"system": "HCV genotype 5a replicon", "test": "Transient replicon assay with engineered substitutions", "format": "cell-based, Hepatitis C virus", "conditions": "for EC50: read-out: Mean EC50 ± SD"}, "[9]": {"system": "HCV genotype 6a replicon", "test": "Transient replicon assay with engineered substitutions", "format": "cell-based, Hepatitis C virus"}, "[10]": {"system": "HCV genotype 1 to 6 replicons containing NS3 substitutions", "test": "Transient replicon assay with engineered substitutions, summary over genotypes", "format": "cell-based, Hepatitis C virus"}, "[11]": {"target": "T1, 3a R155K", "T1 construct": "in chimeric transient replicon", "test": "Luciferase assay of HCV replication in transient-transfection replicons with wild-type or substituted NS3 (at least 3 transfections).", "format": "cell-based, Huh-7", "conditions": "SD, n = 3"}, "[12]": {"target": "T2, 5a D168E (Hepatitis C virus SA13, UniProt O91936, D1195E)", "T2 construct": "in genotype 2a JFH-1 chimeric transient replicon", "test": "Luciferase assay of HCV replication in transient-transfection replicons with wild-type or substituted NS3 (at least 3 transfections).", "format": "cell-based, Huh-7", "conditions": "SD, n = 3"}, "[13]": {"target": "T3, 5a D168H (Hepatitis C virus SA13, UniProt O91936, D1195H)", "T3 construct": "in genotype 2a JFH-1 chimeric transient replicon", "test": "Luciferase assay of HCV replication in transient-transfection replicons with wild-type or substituted NS3 (at least 3 transfections).", "format": "cell-based, Huh-7", "conditions": "SD, n = 3"}},
  "note": "Read-outs that look alike come from different tables or passages of the source.",
  "data": [
    {"smiles": "C=C[C@@H]1C[C@]1(NC(=O)[C@@H]1C[C@@H]2CN1C(=O)[C@H](C(C)(C)C)NC(=O)O[C@@H]1C[C@H]1CCCCCc1nc3ccc(OC)cc3nc1O2)C(=O)NS(=O)(=O)C1CC1", "note": "[Grazoprevir]", "values": [
      {"measurement": "Fold change", "setting": "[1]; 1a NS3 A156T vs wild-type replicon", "result": 655, "unit": "fold"},
      {"measurement": "Fold change", "setting": "[1]; 1a NS3 D168A vs wild-type replicon", "result": 154, "unit": "fold"},
      {"measurement": "EC50", "setting": "[1]; 1a NS3 D168A, read-out: Mean EC50 ± SD", "result": "21 ± 9.8", "unit": "nM"},
      {"measurement": "Fold change", "setting": "[1]; 1a NS3 D168E vs wild-type replicon", "result": 33, "unit": "fold"},
      {"measurement": "Fold change", "setting": "[1]; 1a NS3 D168V vs wild-type replicon", "result": 211, "unit": "fold"},
      {"measurement": "Fold change", "setting": "[1]; 1a NS3 F43L vs wild-type replicon", "result": 1.4, "unit": "fold"},
      {"measurement": "Fold change", "setting": "[1]; 1a NS3 Q80K vs wild-type replicon", "result": 1.8, "unit": "fold"},
      {"measurement": "Fold change", "setting": "[1]; 1a NS3 R155K vs wild-type replicon", "result": 4.2, "unit": "fold"},
      {"measurement": "Fold change", "setting": "[1]; 1a NS3 V36M vs wild-type replicon", "result": 1.9, "unit": "fold"},
      {"measurement": "Fold change", "setting": "[1]; 1a NS3 V55I vs wild-type replicon", "result": 0.7, "unit": "fold"},
      {"measurement": "Fold change", "setting": "[1]; 1a NS3 Y56H vs wild-type replicon", "result": 16, "unit": "fold"},
      {"measurement": "Fold change", "setting": "[2]; 1b NS3 A156T vs wild-type replicon", "result": 203, "unit": "fold"},
      {"measurement": "Fold change", "setting": "[2]; 1b NS3 A156V vs wild-type replicon", "result": 357, "unit": "fold"},
      {"measurement": "Fold change", "setting": "[2]; 1b NS3 D168A vs wild-type replicon", "result": 45, "unit": "fold"},
      {"measurement": "Fold change", "setting": "[2]; 1b NS3 D168E vs wild-type replicon", "result": 4.1, "unit": "fold"},
      {"measurement": "Fold change", "setting": "[2]; 1b NS3 D168V vs wild-type replicon", "result": 22, "unit": "fold"},
      {"measurement": "Fold change", "setting": "[2]; 1b NS3 R155K vs wild-type replicon", "result": 1.1, "unit": "fold"},
      {"measurement": "EC50", "setting": "[2]; 1b NS3 R155K, read-out: Mean EC50 ± SD", "result": "0.21 ± 0.03", "unit": "nM"},
      {"measurement": "Fold change", "setting": "[3]; 2a NS3 A156T vs wild-type replicon", "result": 110, "unit": "fold"},
      {"measurement": "Fold change", "setting": "[3]; 2a NS3 A156V vs wild-type replicon", "result": 187, "unit": "fold"},
      {"measurement": "Fold change", "setting": "[3]; 2a NS3 D168A vs wild-type replicon", "result": 13, "unit": "fold"},
      {"measurement": "Fold change", "setting": "[3]; 2a NS3 D168E vs wild-type replicon", "result": 5.9, "unit": "fold"},
      {"measurement": "Fold change", "setting": "[3]; 2a NS3 D168V vs wild-type replicon", "result": 2.3, "unit": "fold"},
      {"measurement": "Fold change", "setting": "[4]; 2b NS3 A156T vs wild-type replicon", "result": 256, "unit": "fold"},
      {"measurement": "Fold change", "setting": "[4]; 2b NS3 A156V vs wild-type replicon", "result": 473, "unit": "fold"},
      {"measurement": "Fold change", "setting": "[4]; 2b NS3 D168A vs wild-type replicon", "result": 57, "unit": "fold"},
      {"measurement": "Fold change", "setting": "[4]; 2b NS3 D168E vs wild-type replicon", "result": 5.7, "unit": "fold"},
      {"measurement": "Fold change", "setting": "[4]; 2b NS3 D168V vs wild-type replicon", "result": 14, "unit": "fold"},
      {"measurement": "Fold change", "setting": "[5]; 3a NS3 A156G vs wild-type replicon", "result": 13, "unit": "fold"},
      {"measurement": "Fold change", "setting": "[5]; 3a NS3 Q168R vs wild-type replicon", "result": 3.5, "unit": "fold"},
      {"measurement": "Fold change", "setting": "[5]; 3a NS3 R155K vs wild-type replicon", "result": 0.1, "unit": "fold"},
      {"measurement": "EC50", "setting": "[5]; 3a NS3 R155K, read-out: Mean EC50 ± SD", "result": "5.8 ± 0.64", "unit": "nM"},
      {"measurement": "Fold change", "setting": "[6]; 4a NS3 A156T vs wild-type replicon", "result": "1,057 fold"},
      {"measurement": "Fold change", "setting": "[6]; 4a NS3 A156V vs wild-type replicon", "result": 602, "unit": "fold"},
      {"measurement": "Fold change", "setting": "[6]; 4a NS3 D168H vs wild-type replicon", "result": 90, "unit": "fold"},
      {"measurement": "Fold change", "setting": "[6]; 4a NS3 D168V vs wild-type replicon", "result": 46, "unit": "fold"},
      {"measurement": "Fold change", "setting": "[6]; 4a NS3 R155C vs wild-type replicon", "result": 7.1, "unit": "fold"},
      {"measurement": "Fold change", "setting": "[7]", "result": 14, "unit": "fold"},
      {"measurement": "Fold change", "setting": "[8]; 5a NS3 D168E vs wild-type replicon", "result": 9.6, "unit": "fold"},
      {"measurement": "EC50", "setting": "[8]; 5a NS3 D168E", "result": "0.58 ± 0.25", "unit": "nM"},
      {"measurement": "Fold change", "setting": "[8]; 5a NS3 D168H vs wild-type replicon", "result": 244, "unit": "fold"},
      {"measurement": "EC50", "setting": "[8]; 5a NS3 D168H", "result": "15 ± 2", "unit": "nM"},
      {"measurement": "Fold change", "setting": "[9]; 6a NS3 D168A vs wild-type replicon", "result": "1,048 fold"},
      {"measurement": "Fold change", "setting": "[9]; 6a NS3 D168H vs wild-type replicon", "result": 459, "unit": "fold"},
      {"measurement": "Fold change", "setting": "[9]; 6a NS3 D168V vs wild-type replicon", "result": 247, "unit": "fold"},
      {"measurement": "Fold reduced activity, range", "setting": "[10]; D168 substitutions in genotypes 1a, 1b, 2a, 2b, 4a, 4d, 5a and 6a", "result": "2.3- to 1,048 fold"},
      {"measurement": "Fold decrease in susceptibility", "setting": "[10]; R155 substitutions in genotypes 1, 3 and 4", "result": "≤ 7.1", "unit": "fold"},
      {"measurement": "Fold reduction in antiviral activity, range", "setting": "[10]; replicons with A156 substitutions in genotypes 1 to 4", "result": "13- to 1,057 fold"}
    ]},
    {"smiles": "C=C[C@@H]1C[C@]1(NC(=O)[C@@H]1C[C@@H]2CN1C(=O)[C@H](C(C)(C)C)NC(=O)O[C@@H]1C[C@H]1CCCCCc1nc3ccc(OC)cc3nc1O2)C(=O)NS(=O)(=O)C1CC1", "note": "[Grazoprevir, grazoprevir (MK-5172)]", "values": [
      {"measurement": "EC50", "setting": "[11]", "result": "5.8 ± 0.64", "unit": "nM"},
      {"measurement": "EC50", "setting": "[12]", "result": "0.58 ± 0.25", "unit": "nM"},
      {"measurement": "EC50", "setting": "[13]", "result": "15 ± 2", "unit": "nM"}
    ]}
  ]
}
